PMC6985210

Molecular target: His6-CRP (cAMP receptor protein) (UniProt A6TEZ6)
Assay: EMSA
Conditions: cAMP (1 nmol in gel), CRP 0-2 uM; EMSA: His6-CRP 0, 0.6, 1, 2 uM, room temperature 30 min, 6% native PAGE containing 1 nmol cAMP; 10 ng unlabeled probe as cold competitor; salt and pH not stated; recombinant protein; protein details: His6 (N-terminal, pET28a); label: biotin 3' end; probe letters rebuilt from the primers and the genome

| Sequence | binding result |
| --- | --- |
| TCTGATTAAACTGAAAGACGGCGTGGGCCTGCTGCCGACCTCGCTGGACATCGTCGAGAACCCGAAAAACCTGAAGATTGTTGAACTGGAGGCGCCGCAGCTGCCGCGTTCCCTGGACGATGCGCAGATTGCGCTGGCCGTTATCAACACCACTTACGCCAGCCAGATTGGCCTGACCCCGGCGAAAGACGGCATCTTTGTTGAAGGTAAAGAGTCTCCTTACGTGAACCTGATTGTGGCGCGTGAAGACAATAAAGATGCTGAGAATGTGAAAAAATTCGTTCAGGCTTACCAGAGCGATGAAGTTTACGAAGCAGCGAACAAGATCTTTAACGGCGGTGCCGTGAAAGGCTGGTAATCTTTTCTCACCGTAATATCATTCAGGACGGGCTTCACGCCCGTCTTGTCATTTATGCAAGCACCTGATTCAATAACGCCCTGTTTTTTATTCATTGAGGAAATACT (double strand) [rcsF promoter probe] | binds |
| CAGGTCAGCTGCCACGATACCACCGACATCTTCCGGCGCAGCGCCCTGGCCGGCCCACTGGAACGGTACCACGCCGATAGGGCGCGCCGAGTCCACCCCCTGGGTGATCTCGATACGTACTTCTGCGTGCAGCACCGCCGCCCACAGCATTAAAAAACCAAATGCTACTCGTAATGCCTGCTTCATCATATCTCCCTTATCCGGGCGGAAAGCCCACGATAATTTAGCAGAATGTTAACAAACTCAAATATACAAAACTACCAAAACCCTGTGACTACCATAGATTGTTTTTCCCCGTTTGCACGGGGAAAAATGTCACTGAGGTTTGAAGTCCAGTGGCGCATTTTTGAAGACTTCATATACTGCCTGGCTAGGTGGTTTCGGAAACTTAGCCTGTCGGGCTGCGGCAAGAGCGGCCTGGCACAGAGCAGGATCACCACCTTCGGACTGTATATTTAACAACAGGCCGTCAGGAGCAAGTTTGATACGCA (double strand) [tolB promoter probe] | binds |
| TGCGAGCACTAGGCAAGTTGATGCCGGGCGAAGAAGAGGTGGCAGAGAATCCACGCGCCCGTAGTTCAGTGCTGCGTATCGCAGAGAGGACGAACGCATGATCGGCAGAGTGACAGAGGCCTTAAGCAAGGTTAAAGGGTCGATTGGAAGCAACGAGCGCCATGCTTTGCCTGGCGTGATCGGGGACGACCTTCTGCGGTTTGGGAAACTGCCACTCTGCTTGTTCATTTGCATCATTATTACGGCGATTACCGTGGTCACCACTGCGCATCACACGCGCCTGTTGACCGCGCAGCGTGAACAGCTGGTTCTGGAGCGCGACGCCCTGGATATTGAGTGGCGCAACCTGATCCTCGAAGAGAACGCGCTCGGCGATCACAGTCGGGTTGAGCGGATCGCGACCGAGAAGTTACAGATGCAACACGTCGATCCATCACAAGAAAATATCGTTGTACAGAAATAAGGATTATTGCGACGGATGAAAGCAGCGCCAAAAACGCCTAAAGCAAAACGTCAGGAAGAACAGGCCAACT (double strand) [ftsI promoter probe] | no binding |

Construct, isoform or probe ends are uncertain for at least one entry. No signal at the amounts used counts as a negative.
